Laboratory results taken from patent publication US7728034B2, “Treating neurological disorders using selective antagonists of persistent sodium current” (Allergan, Inc., priority 2003, dated 2010).

By UniProt entry, the sequences of proteins in these tests, tags left out.
UniProt Q9NY46, whole entry: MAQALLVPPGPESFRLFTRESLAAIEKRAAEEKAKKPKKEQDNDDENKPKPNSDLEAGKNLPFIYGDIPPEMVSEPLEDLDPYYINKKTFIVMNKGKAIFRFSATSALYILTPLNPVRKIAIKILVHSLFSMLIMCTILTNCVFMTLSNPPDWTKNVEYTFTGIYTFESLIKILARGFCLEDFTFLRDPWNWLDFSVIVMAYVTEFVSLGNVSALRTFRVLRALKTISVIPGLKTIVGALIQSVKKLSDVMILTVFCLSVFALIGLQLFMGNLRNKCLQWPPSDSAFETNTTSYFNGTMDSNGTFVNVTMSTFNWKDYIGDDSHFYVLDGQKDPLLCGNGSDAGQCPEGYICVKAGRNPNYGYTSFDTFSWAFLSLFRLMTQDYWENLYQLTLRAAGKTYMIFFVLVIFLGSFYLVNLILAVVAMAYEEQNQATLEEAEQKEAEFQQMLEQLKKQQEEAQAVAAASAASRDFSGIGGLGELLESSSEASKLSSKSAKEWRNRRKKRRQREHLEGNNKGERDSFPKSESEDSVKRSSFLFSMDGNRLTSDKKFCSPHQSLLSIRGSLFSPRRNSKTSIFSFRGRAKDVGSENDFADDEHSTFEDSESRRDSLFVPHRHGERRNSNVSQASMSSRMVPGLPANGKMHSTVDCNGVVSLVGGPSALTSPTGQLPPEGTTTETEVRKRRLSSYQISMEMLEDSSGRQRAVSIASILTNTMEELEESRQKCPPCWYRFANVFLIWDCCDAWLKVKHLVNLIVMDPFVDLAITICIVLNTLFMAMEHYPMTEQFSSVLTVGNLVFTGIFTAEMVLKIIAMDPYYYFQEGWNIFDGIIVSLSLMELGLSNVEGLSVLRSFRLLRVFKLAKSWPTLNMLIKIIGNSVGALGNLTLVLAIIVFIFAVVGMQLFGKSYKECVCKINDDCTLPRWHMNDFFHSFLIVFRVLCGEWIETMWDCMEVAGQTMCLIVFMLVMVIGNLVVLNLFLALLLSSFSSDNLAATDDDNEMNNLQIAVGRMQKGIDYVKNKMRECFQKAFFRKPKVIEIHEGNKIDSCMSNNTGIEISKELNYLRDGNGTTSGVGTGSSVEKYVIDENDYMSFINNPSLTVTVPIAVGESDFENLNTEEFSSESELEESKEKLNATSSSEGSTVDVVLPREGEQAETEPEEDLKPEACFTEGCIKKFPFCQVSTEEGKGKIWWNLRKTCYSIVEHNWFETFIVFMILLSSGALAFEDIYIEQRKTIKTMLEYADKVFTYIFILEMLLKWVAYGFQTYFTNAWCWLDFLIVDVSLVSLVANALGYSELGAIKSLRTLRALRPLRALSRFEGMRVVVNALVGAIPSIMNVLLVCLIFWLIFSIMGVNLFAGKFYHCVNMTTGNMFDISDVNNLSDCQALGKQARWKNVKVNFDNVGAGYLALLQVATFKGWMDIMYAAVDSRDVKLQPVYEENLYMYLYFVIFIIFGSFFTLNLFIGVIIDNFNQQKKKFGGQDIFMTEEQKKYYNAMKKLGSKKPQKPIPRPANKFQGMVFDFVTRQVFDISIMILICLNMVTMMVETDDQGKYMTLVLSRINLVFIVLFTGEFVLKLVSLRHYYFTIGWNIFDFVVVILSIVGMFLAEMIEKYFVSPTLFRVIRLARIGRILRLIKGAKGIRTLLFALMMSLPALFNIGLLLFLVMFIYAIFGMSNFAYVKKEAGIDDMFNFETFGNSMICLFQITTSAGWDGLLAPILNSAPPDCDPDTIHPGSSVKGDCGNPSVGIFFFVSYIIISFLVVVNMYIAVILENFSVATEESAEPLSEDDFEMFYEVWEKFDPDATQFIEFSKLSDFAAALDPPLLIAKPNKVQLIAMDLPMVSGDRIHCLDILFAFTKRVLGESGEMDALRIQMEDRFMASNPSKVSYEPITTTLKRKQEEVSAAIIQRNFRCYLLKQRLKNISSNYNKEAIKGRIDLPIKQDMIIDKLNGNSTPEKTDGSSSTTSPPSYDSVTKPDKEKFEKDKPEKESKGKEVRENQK

Target: HEK cells expressing Nav1.3 channels (Homo sapiens, UniProt Q9NY46)

tetrotoxin [TTX, reference compound]
block of the persistent current: completely blocked
block of the transient current: completely blocked
